Residue numbers refer to the chain shown, from its start.

What all share (experiment): protein ELISA
For orientation: ELISA stands for enzyme-linked immunosorbent assay.

Experiment [1] deals with T1, SARS-CoV-2 SD1-RBD Omicron BA.1 (SARS-CoV-2 Omicron BA.1).
T1 construct: domain: SD1-RBD

For experiment [2], the target named is T2, SARS-CoV-2 SD1-RBD Omicron BA.2.75 (SARS-CoV-2 Omicron BA.2.75).
T2 construct: domain: SD1-RBD

Experiment [3] addresses T3, SARS-CoV-2 SD1-RBD Omicron BA.4/BA.5 (SARS-CoV-2 Omicron BA.4/BA.5).
T3 construct: domain: SD1-RBD

B1: rbd.110 (antibody, V domains shown)
VH: EVQLVESGGGVVQPGRSLRLSCVASGFTFSRYGMHWVRQAPGKGLEWVATILYDGSDQYYAESVKGRFTISRDNSKNTLYLQMNSLREADTAVYYCAKTSYGYAYNFRLYFDYWGQGTLVTVSS
VL: SYELTQPPSVSVAPGKTATITCGGNNIGSAGVHWYQQRPGQAPVLVVYDDSDRPSGIPERFSGSTSGNTATLTISRVEAGDEADYYCQVWDSNSAPVIFGGGTKLTVL
As a reminder, the EC50 is the concentration at which the effect is half-maximal. As for B1, the EC50 in experiment [1] amounted to 0.0189 mg/L; in experiment [2], 0.0525 mg/L; in experiment [3], 0.015 mg/L.

B2: rbd.106 (antibody, V domains shown)
VH: EVQLVQSGAEVKKPGESLKISCKGSGYSFYNHWIAWVRQMPGKGLEWMGIIYPYDSDTRYSPSFQGQVTISADKSITTAYLQWSSLKASDTAIYYCARRSDYGEFGGHSDYWGQGTLVTVSS
VL: QSVLTQPPSASGTPGQRVSISCSGSSSNIGSNSVNWYQQFPGTAPKLLMFSSYQRPSGVPDRFSGSKSGTSASLAISGLQSEDEADYYCAAWDDSLNGVVFGGGTKLTVL
On to B2, for which the EC50 was 0.0282 mg/L in experiment [1], 0.0541 mg/L in experiment [2] and 0.0308 mg/L in experiment [3].

B3: rbd.143 (antibody, V domains shown)
VH: EVQLVESGGGLVQPGGSLRLSCSASGFTFRRYAMHWVRQAPGKGLQHVSAISSDGDNTHYADSVKGRFTISRDNFKNTLHLQMSSLRPEDTAVYYCVKDPFSNFHYFDCWGQGILVTVSS
VL: not shown
Consider B3, for which the values for the 50% effective concentration (EC50) in experiment [1], in experiment [2] and in experiment [3] were 0.0223 mg/L, 0.0375 mg/L and 0.0261 mg/L, respectively.

B4: rbd.117 (antibody, V domains shown)
VH: EVQLVESGGGLVQPGGSLRLSCAASGFTFSRYAMSWVRQAPGKGLEWVSGLSGSGDSTYYADSVKGRFTISRDNSKKTLNLQMNSLRPEDTAVYYCAKGSRFGIDYFDCWGQGTLVTVSS
VL: DIQMTQSPSTLSASVGDRVTITCRASQSISSWLAWYQLKPGKAPKLLIYDASSLESGVPSRFSGSGSGTEFTLTISSLQPDDFATYYCQQYNTYPFSFGPGTKVDIK
Turning to B4, the EC50 came out at 0.0258 mg/L in experiment [1], 0.0522 mg/L in experiment [2] and 0.0234 mg/L in experiment [3].

B5: rbd.123 (antibody, V domains shown)
VH: QVQLVQSGAEVKKPGSSVKVSCKASGGAFRMYAISWVRQAPGQGLEWMGGIIPISGTATYTQNFQGRVTITVDRSTSTAYMELSSLRSDDTALYYCARGPRTGYDYFDFWGQGTLVTVSS
VL: B4 VL with L38Q, K45N, N92K, T93S, F96Y, S97T, P100Q, V104L, D105E
Take B5: the values for the EC50 in experiment [1], in experiment [2] and in experiment [3] were 0.00942 mg/L, 0.0136 mg/L and 0.00893 mg/L, respectively.

B6: rbd.112 (antibody, V domains shown)
VH: EVQLVQSGAEVKKSGESLKISCKSSGYSFTTYWIAWVRQMPGKGLEWMGIIYPGHSDARYSPSFQGHVTISADKSISTAYLQWRSLKASDTAIYYCARLSYYDVSNFYYYDSYWFDSWGLGTLVTVSS
VL: QSVLTQPPSVSGAPGQRVTISCTGSSSNLGAGYDVHWYQQLPGTAPKLLIYANSNRPSGVPDRFSGSKSGTSASLAMTGLQAEDEADYYCQSYDSSLGGYVFGFGTKVTVL
For B6, the EC50 amounted to 0.0289 mg/L in experiment [1], 0.0647 mg/L in experiment [2] and 0.0213 mg/L in experiment [3].

B7: rbd.113 (antibody, V domains shown)
VH: EVQLVQSGAAVKKPGESLKISCKGSGYSFTNYWIGWVRQMPGKGLELMGIIYVGDSDTRYSPSFQGQVTISADKSITTAYLQWSSLKASDSAIYYCARQRCGGDCPFDLWGRGTLVTVSS
VL: DIQMTQSPSTLSASVGDRVTITCRASQSINRWLAWYQQKPGKAPELLIYDASDLESGVPSRFSGSGSGTEFTLTISSLQPDDFATYYCQQYNSYWTFGQGTKVEIK
Regarding B7, the concentration for a half-maximal effect (EC50) in experiment [1] was found to be 0.0199 mg/L; in experiment [2], 0.0511 mg/L; in experiment [3], 0.0169 mg/L.

The values above are taken from US20250382354A1 (INSTITUTE FOR RESEARCH IN BIOMEDICINE IRB, published 2025).
